B1: mAb14286 (antibody, V domains shown)
VH: QVQLVQSGAEVKKPGASVKVSCKASGYTFTDYFIHWVRQAPGQGLEWMGWINPTSGGTNYAQKFRGRVTMTRDTSISTAYVELSRLRSDDTALYYCARDLPFYSDTKQFDYWGQGTLVTVSS
VL: QSALTQPASVSGYPGQSITISCTGTSSDVGGYNYVSWYQQHPGKAPKLMIFDVSNRPSGVSNRFSGSKSGNTASLTFSGLQAEDEADYYCSSYTSSSTLVFGGGTKLTVLG
B2: mAb14282 (antibody, V domains shown)
VH: QVQLVQSGAEVKKPGASVKVSCKASGYIFTDHYMHWVRQAPGQGLEWMGWINPNSGATNYAQNFQGRVTMTRDTSIITVYMELSRLRSDDTAVYYCARDSSPYMIRYTMDVWGQGTTITVSS
VL: QSALTQPASVSGSPGQSITISCTGTSSDVGSYNLVSWYQQHPGKAPKLMIYELTKRPSGVSNRFSGSKSGNTASLTISGLQAEDEADYYCSSYRGSVTDVVFGGGTKLTVLG
B3: mAb14281 (antibody, V domains shown)
VH: QVQLVQSGADVKKPGASVKVSCKTSGYIFTGYYIHWVRQAPGQGLEWMGWINPNSGGTNSAQKFQGRVTMTRDTSISTVYMELSRLRSDDTAVYYCAKSNSFSVLDYNFDYWGQGTLVTVSS
VL: SSELTQDPAVSVALGQTVRITCQGDSLRSYYASWYQQKPGQAPVLVIYDKNNRPSGIPDRFSGSSSGNTASLTITGAQAEDEADYYCNSRDSSRNHLVVFGGGTKLTVLG
B4: mAb14230 (antibody, V domains shown)
VH: EVQLVESGGGLIQPGRSLRLSCAASGFTFDDYAMHWVRQAPGKGLEWVSGISWNSVSIDYADSVKGRFTISRDNAKNSLYLQMTSLTVEDTALYYCAKAFGYETLTGSDYFAYWGPGTLVTVSS
VL: EIVLTQSPGTLSLSPGERATLSCRASQTVISTYLAWYQQKPGQSPRLLIYGASSRATGIPDRFSGSGSGTDFTLTISRLEPEDFAVYYCQQYGSSPQLTFGGGTKVEIKR
B5: mAb14285 (antibody, V domains shown)
VH: QVQLVQSGAEVKKPGASVKVSCKASGYTFTGYFIHWVRQAPGQGLEWMGWISPISGGTNYAQKFQGRVTVTRDTSITTAYMELSRLTSDDTAVYHCAREGGTWKGDFDYWGQGTLVTVSS
VL: QSALTQPASVSGSPGQSITISCTGTSSDVESYNLVSWYQQHPGKAPKLMIYEGSKRPSGVSNRFSGSKSGNTASLTISGLQAEDEADYYCSSYAGSSTWVFGGGTKLTVLG
B6: mAb14280 (antibody, V domains shown)
VH: QVQLVQSGAEVKKPGASVRVSCKASGYTFTGNYIHWVRQAPGQGLEWMAWINPNSGGKNYAQKFQGRVTLTRDTSVNTAYMELSRLRSDDTAMYYCARDVNYNILTGPGGLWGQGTLVTVSS
VL: QSALTQPPSASGSPGQSVTISCTGTSSDVGGYNFVSWYQQHPGKAPKLMIYEVSKRPSGVPDRFSGSKSGNTASLTVSGLQAEDEADYYCSSYAGSNNFVFGTGTKVTVLG
B7: mAb14234 (antibody, V domains shown)
VH: QVQLVESGGGVVQPGRSLRLSCAASGFTFSSYGIHWVRQAPGKGLEWVAIIWYDGSEKYYADSVKGRFTISRDNSKNTLFLQMNSLEAEDTAVYYCARGPDLLTGYYNYFYYGMDVWGQGTTVTVSS
VL: QSVLTQPPSVSGAPGQRVTISCTGSSSNIGIGYDVHWYQQLPGTVPKLLIYGNTNRPSGVPDRFSGSKSGTSASLAITGLQAEDEADYYCQSYDSSLSSYVFGTGTKVTVLG
B8: mAb14292 (antibody, V domains shown)
VH: EVQLVESGGGLVQPGGSLRLSCVASGFAFSTYEMNWVRQAPGKGLEWVSYISSSGSTIYYADSVKGRLTISRDNVKNSLYLQMNSLRVEDTAIYYCARDAIRNNDILTDPATFDPWGQGTLVTVSS
VL: not shown
B9: mAb15156 (antibody, V domains shown)
VH: QLQLQESGPGLVKSSETLSLTCTVSASITGSTYYWGWIRQPPGKGLEWIGSIYYSGTTYYKASLKSRVTISVDTSKNQFSLKLTSVTVADTAVYYCVSHLLGNYHKYGMDVWGQGTTVTVSS
VL: QSVLTQPPSASGTPGQRVTISCSGSRSNIGINTVNWYQQFPGTALNLLIFSDNQRPSGVPDRFSGSKSGTSASLAISGLQSEDEADYYCAAWDDSLNGPDWVFGGGTKLTVLG
B10: mAb14312 (antibody, V domains shown)
VH: EVQLVESGGGLVQPGGSLRLSCAASGFTVSRSYMTWVRQAPGKGLEWVSVIFTGGRTDHADSVKGRFTISRHNSKNTLYLQMNSLRTEDTAVYYCARVAIVGATGAFDIWGQGTMVTVSS
VL: QSVLTQPPSVSGAPGQRVTISCTGSSSNIGAGDDVHWYQQLPGTAPKLLIYGNSNRPSGVPDRFSGSKSGTSASLAITGLQAEDEADYYCQSYDSSLSGSVVFGGGTKLTVLG
B11: mAb15157 (antibody, V domains shown)
VH: EVQLVESGGALVQPGGSLRLSCAASGFPFTIYAMTWVRQAPGKGLEWVSVITGSGDSTYYADSVKGRFTISRDNSKNTLYLQMNSLRAEDTAVYYCVKTGEGFFYYYYGMDVWGQGTTVTVSS
VL: QSVLTQPPSVSAAPGQKVTISCSGSSSNIGNSYISWYQQLPGTAPKLLIYVNNKRPSGIPDRFSGSKSGTSATLGITGLQTGDEADYYCGTWDSSLSAGVFGSGTKVTVLG
B12: mAb15158 (antibody, V domains shown)
VH: EVQLVESGGGLVQPGGSLRLSCAASGFSFSSNWMSWVRQAPGKGLEWVGNINQDGSEKYYVDSVEGRFTISRDNAKKSLYLQMNSLRAEDTAVYYCARDLGVLWFGDFVDWGQGALVTVSS
VL: DIQMTQSPSSLSASVGDRVTITCRASQAISNSLAWYQQKPGKAPKLLLYAASTLESGVPSRFSGSGSGTDYTLTISSLQPEDFATYYCLQYYGSPRTFGQGTKVEIKR
B13: mAb15159 (antibody, V domains shown)
VH: EVQLVESGGGLVQPGGSLRLSCAASGITVSSNYMTWVRQAPGKGLEWVSLIYSGGSTFYADSVRGRFTISRDNSKNTLYLQMNSLRAEDTAVYYCARDLVVYGMDVWGQGTTVTVSS
VL: DIQLTQSPSSLSASVGDRVTITCRASQGISSYLAWYQQKPGKAPKLLIYAASTLQSGVPSRFSGSGSGTDFTLTISSLQPEDFATYYCQHLNSDPHTFGQGTKLEIKR
B14: mAb15160 (antibody, V domains shown)
VH: EVQLVESGGGLVQPGGSLRLSCSASGFTFSRYAMYWVRQAPGKGLEYVSAISSDGGSTYDADSVKGRFTISRANSKNTLYLQMSSLRAEDTAVYYCVKGLRELLYYYYGMDVWGQGTTVTVSS
VL: DIQMTQSPSSLSASVGDRVTITCRAGQSISSFLNWYQQKPGKAPKLLIYAASSLQSGVPSRFSGSGSGTDFTLTISSLQPEDFATYYCQQSYITPFTFGPGTKVDIKR
B15: mAb15161 (antibody, V domains shown)
VH: EVQLVESGGGLVQPGGSLRLSCAASGFTFSSYEMNWVRQAPGKGLEWVSYISSSGSILYYADSVKGRFTASRDNAKNSLYLQMNSLRAEDTGVYYCARREYQLLRPFEFWGQGTLVTVSS
VL: not shown
B16: mAb15162 (antibody, V domains shown)
VH: EVQLVETGGGLIQPGGSLRLSCAASEFIVSRNYMSWVRQAPGKGLEWVSLIYSGGSTYYADSVKGRFTISRDNSKNILYLQMNSLRAEDTAVYYCARDRGGISDYWGQGTLVTVSS
VL: DIQMTQSPSSLSASVGDRVTITCQASQDINKYLNWFQQKPGKAPKLLIYDASNLETGVPSRFSGSGSGTDFTFTISSLQPEDIATYYCQQYDNLPRTFGQGTKLEIKR

Molecular target: SARS-COV-2 RBD extracellular domain expressed with a C-terminal myc-myc-hexahistidine tag (SARS-CoV-2)
Test: SPR (Biacore), mAb captured by anti-human Fc, RBD-mmH in solution, 25 C

Row | Binder | RBD monomer bound at 50 nM (RU)
1 | B1 | 158 RU
2 | B2 | 170 RU
3 | B3 | 158 RU
4 | B4 | 114 RU
5 | B5 | 158 RU
6 | B6 | 177 RU
7 | B7 | 153 RU
8 | B8 | 11.1 RU
9 | B9 | 91 RU
10 | B10 | 191 RU
11 | B11 | 20.3 RU
12 | B12 | 26.3 RU
13 | B13 | 62 RU
14 | B14 | 9.3 RU
15 | B15 | 40.3 RU
16 | B16 | 49.6 RU

Reference: patent publication US20260069689A1, “ANTI-SARS-COV-2-SPIKE GLYCOPROTEIN ANTIBODIES AND ANTIGEN-BINDING FRAGMENTS” (Regeneron, published 2026)
